# Primary screen of a compound library

From ChEMBL document CHEMBL3988442, “University of Dundee, Small-Polar-MMV Screening Library” (2021).

Each number is a percent effect as filed.
The record does not define 0% and 100%; most values in the screen are far below 50% and negative numbers occur (in some assays of this library far below -100).
Many other results are left out here, so strong results are more common than in the screen.

Mtb glucose medium: 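Growth of Mycobacterium tuberculosis over 3 days (7H9 medium with glucose and tyloxapol); the read-out is not stated. Compounds at 500 µM. Direction is inferred from retests: higher values go with more growth inhibition. Size under these conditions: about 18,000 compounds, about 1,400 of them at 50% or above in at least one test.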
Mtb cholesterol medium: 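Growth of Mycobacterium tuberculosis over 4 days (cholesterol / DPPC medium with tyloxapol); the read-out is not stated. Concentration: 500 µM. Higher reads as more growth inhibition (inferred: compounds with an IC50 in retests scored well above the rest). About 18,000 compounds were tested under these conditions; 5% (about 900) showed 50% or more at least once.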

- Nc1ccc(-c2ccc(CN3CCCCC3)cn2)cn1 : Mtb glucose medium: 10.2%
- CC(C)CN1CCC(N)CC1 : Mtb glucose medium: 2.059%
- Cc1cc(NC2CC2)n2ncnc2n1 : Mtb glucose medium: 12.29%
- CC(=O)c1c[nH]c(C(=O)NC(C)Cc2ccco2)c1 (stereo not shown) : Mtb glucose medium: 42.79%
- COc1ccc(CCN)c(F)c1 : Mtb glucose medium: 45.94%; Mtb cholesterol medium: 14.02%
- CC(C)(C(=O)N1CCNCC1)c1ccccc1 : Mtb cholesterol medium: 7.637%
- Cc1ccc2c(c1)OC(C)CN2C(=O)c1ccccn1 (stereo not shown) : Mtb glucose medium: 53.16%
- CCCN1CCC(NCc2ncccc2F)CC1 : Mtb glucose medium: 22.85%
- OCC(O)CSCCN1CCCc2ccccc21 (stereo not shown) : Mtb cholesterol medium: 28.81%
- NC(C(=O)N1CCOC2(CCC2)C1)c1ccccc1 (stereo not shown) : Mtb glucose medium: -16.42%; Mtb cholesterol medium: -4.572%
- CCC(O)(CC)CNc1nnnn1-c1ccc(C)cc1 : Mtb glucose medium: 32.89%; Mtb cholesterol medium: 16.54%
- Cc1[nH]ncc1CCCNC(=O)N1CCSCC1 : Mtb glucose medium: 12.55%
- c1ccc(OCCCOC2CNC2)cc1 : Mtb glucose medium: 59.62%; Mtb cholesterol medium: 50.42%
- O=C(COCC(F)(F)F)NCc1cn2ccccc2n1 : Mtb glucose medium: 54.79%
- N#Cc1nnc(-c2ccccc2)o1 : Mtb glucose medium: 28.03%
- CNS(=O)(=O)c1cccc(C(=O)Nc2cccnc2)c1 : Mtb glucose medium: 2.763%
- CCOCCN1CCN(C(=O)CN2CCCC2)CC1 : Mtb cholesterol medium: -31.62%
- CCOc1ccc(C(=O)N(C)C2CCN(C)C2=O)cc1 (stereo not shown) : Mtb glucose medium: -7.184%; Mtb cholesterol medium: -15.83%
- CC1CNCCN1c1nc2ccccc2o1 (stereo not shown) : Mtb glucose medium: 47.34%
- CCc1sc(C(=O)OCC(=O)N2CCNC2=O)cc1C : Mtb glucose medium: -0.5041%
- CN(Cc1ccco1)S(=O)(=O)CCN1CCCC1 : Mtb glucose medium: 41.98%; Mtb cholesterol medium: 23.14%
- CN(Cc1cccc(C#N)c1)Cc1ccnc(N)c1 : Mtb glucose medium: 17.11%
- COCC(O)CN(C)C(=O)c1cc(C)cc(F)c1 (stereo not shown) : Mtb glucose medium: 8.693%; Mtb cholesterol medium: 4.204%
- Cn1nccc1C(=O)NC1Cc2ccccc2C1 : Mtb glucose medium: 44.25%
- COc1ccc(CC#N)cc1S(C)(=O)=O : Mtb glucose medium: -0.02476%
- CNCCCNS(=O)(=O)c1cn(C(C)C)cn1 : Mtb glucose medium: -10.9%
- CCn1cnnc1C(C)NC(=O)c1cc(CO)ccn1 (stereo not shown) : Mtb cholesterol medium: -0.8517%
- CN1CC2(CCN(Cc3nccn3C)CC2)OC1=O : Mtb cholesterol medium: 1.693%
- C(Cc1noc(C2CNC2)n1)OCC1CC1 : Mtb glucose medium: 104.1%; Mtb cholesterol medium: 107.5%
- CN(CCN)CC1CCCOC1 (stereo not shown) : Mtb glucose medium: 4.23%
- CC(C)Oc1cccc(-c2cnn(CCC(N)=O)c2)c1 : Mtb glucose medium: 68.53%; Mtb cholesterol medium: 73%
- CCc1ccccc1NC(=O)CSCC(N)=O : Mtb glucose medium: 17.07%
- CN(Cc1ccc(Cl)s1)CC1CCS(=O)(=O)C1 (stereo not shown) : Mtb cholesterol medium: 33.03%

The first 2 entries again:

{"smiles": "Nc1ccc(-c2ccc(CN3CCCCC3)cn2)cn1", "Mtb glucose medium": 10.2}
{"smiles": "CC(C)CN1CCC(N)CC1", "Mtb glucose medium": 2.059}